In patent publication US20140017269A1 (CHILDREN S HOSPITAL MEDICAL CENTER, published 2014):

Biological target: the molecule itself
Test: gel filtration and EM; self-association

B1: GST-NoV P polypeptide fusion protein (GST-NoV P^-) (other)
chain: not shown
notes: Assembles with itself into linear complexes of varying size
Does B1 bind?
Result: binds
